Results of unrelated studies side by side (data: NIAID ChemDB).

All rows: tests in culture; species: Mycobacterium tuberculosis

MIC50, MIC90 and the like: level of inhibition, or share of isolates inhibited. Inhibition is in % at the dose shown (toxicity tests: loss of growth or viability). ECn: concentration that inhibits the pathogen or its effect by n%. MIC bound comes from a single tested concentration. Blank or dashed fields: not listed here. Neighbouring rows are from separate reports.

structure	measure	dose	strain	changes	cells	method	value
CC[As]1c2ccccc2Oc2ccccc21	inhibition	12.5 µg/mL	H37Rv			BACTEC	99%
CC(C)(C)c1ccc(CN2CCC3(CC2)C(=O)N(CC2CC2)c2ccccc23)cc1	MIC		H37Rv			turbidity	0.8 µM
CO[C@H]1/C=C/O[C@@]2(C)Oc3c(C)c(O)c4c(O)c(c5c(c4c3C2=O)NC2(CCN(CC(C)C)CC2)N=5)=NC(=O)/C(C)=C\C=C\[C@H](C)[C@H](O)[C@@H](C)[C@@H](O)[C@@H](C)[C@H](OC(C)=O)[C@@H]1C	MIC		CSU12				≤0.125 µg/mL
O=c1[nH]c2ccc(Cl)cc2c(O)c1N=Nc1ccc(Cl)cc1	MIC		H37Rv			resazurin	<6.25 µg/mL
Cc1cc(N/N=C/c2cc(C)n(-c3ccccc3)c2C)c2cc(C3CCCCC3)ccc2n1	inhibition	12.5 µg/mL	H37Rv		VERO		100%
Cc1nc2c(n1CCN1CCOCC1)C(=O)c1nc(C)n(CCN3CCOCC3)c1C2=O.Cl.Cl	MIC bound		H37Rv			BACTEC	>12.5 µg/mL
CC[C@H]1OC(=O)[C@H](C)[C@@H](O[C@H]2C[C@@](C)(OC)[C@@H](O)[C@H](C)O2)[C@H](C)[C@@H](O[C@@H]2O[C@H](C)C[C@H](N(C)C)[C@H]2O)[C@](C)(OC)C[C@@H](C)C(=O)[C@H](C)[C@@H](O)[C@]1(C)O	MIC		Isolate 40				2 µg/mL
NNC(=O)c1ccncc1	MIC		CSU20				≤0.125 µg/mL
COc1ccc(CN2C(=O)C3(CCN(CC4CCCO4)CC3)c3ccccc32)cc1	MIC		H37Rv			resazurin	50 µM
COc1ccc(N=Nc2c(O)c3cccc([N+](=O)[O-])c3[nH]c2=O)c(C)c1	MIC		H37Rv			resazurin	>6.25 µg/mL
Cc1cccc(C)c1Nc1nc(-c2ccccc2)cs1	MIC		H37Rv			visual reading	>20 µM
C/C=C1/C(=O)O[C@]23C=C[C@@H]4C(C(=O)OC)=CO[C@H](O[C@@H]12)[C@@H]43	MBC		MDR2 clinical isolate			MTT	3.8 µg/mL
Cc1cccc(C)c1Nc1nc(-c2ccccc2S)cs1	MIC		H37Rv			visual reading	>20 µM
Cc1cccc(N=Nc2c(O)c3cccc([N+](=O)[O-])c3[nH]c2=O)c1C	inhibition	6.25 µg/mL	H37Rv			resazurin	48%
Cc1ccc2c(c1)NC(C)(c1ccccn1)S2	MIC		H37Rv				1.6 µg/mL
C=CCN(CC=C)CCNc1cc(C)nc(Nc2nc3ccc(Cl)cc3[nH]2)n1	inhibition	6.25 µg/mL	H37Rv			BACTEC	74%
CC1CN(c2c(F)cc3c(=O)c(C(=O)O)cn(C4CC4)c3c2F)CC(C)N1	MIC		Strain 24				0.25 µg/mL
COc1ccc2c(N/N=C/c3ccc(OC)c4ccccc34)cc(C)nc2c1	inhibition	12.5 µg/mL	H37Rv		VERO		99%
O=c1oc2ccccc2cc1-c1cs/c(=N/N=C/c2ccc(Br)cc2)n1C1CCCCC1	MIC		H37Rv				>6.25 µg/mL
CO[C@H]1/C=C/O[C@@]2(C)Oc3c(C)c(O)c4c(O)c(cc(OCC(N)=O)c4c3C2=O)NC(=O)/C(C)=C\C=C\[C@H](C)[C@H](O)[C@@H](C)[C@@H](O)[C@@H](C)[C@H](OC(C)=O)[C@@H]1C	MIC		H37Rv				0.009 µg/mL
COc1ccc(NC(=S)N=Nc2c(O)n(CN3CCOCC3)c3ccc(OC(F)(F)F)cc23)cc1	EC50		H37Rv			broth dilution / resazurin	2.404 µg/mL
COc1ccc2nc(C)cc(N/N=C/c3ccc(OC)c4ccccc34)c2c1	MIC		H37Rv		VERO		1.56 µg/mL
O=c1oc(-c2ccc([N+](=O)[O-])cc2Cl)nc2ccccc12	MIC bound		H37Rv			BACTEC	>12.5 µg/mL
CCCCNC(=S)N=Nc1c(O)[nH]c2ccc(OC(F)(F)F)cc12	EC90		H37Rv			broth dilution / resazurin	>100 µg/mL
Cc1ccc(NC(=O)c2cc(S(=O)(=O)Nc3nc4ncccc4[nH]3)c(SSc3cc(Cl)c(C(=O)Nc4ccc(C)cc4)cc3S(=O)(=O)Nc3nc4ncccc4[nH]3)cc2Cl)cc1	inhibition	6.25 µg/mL	H37Rv			resazurin	28%
CO[C@H]1/C=C/O[C@@]2(C)Oc3c(C)c(O)c4c(O)c(c(/C=N/N5CCN(C6CCCC6)CC5)c(O)c4c3C2=O)NC(=O)/C(C)=C\C=C\[C@H](C)[C@H](O)[C@@H](C)[C@@H](O)[C@@H](C)[C@H](OC(C)=O)[C@@H]1C	MIC		H37Rv				1.25 µg/mL
COc1ccc2nc(-c3ccccc3)cc(N/N=C/c3ccc(NC(C)=O)cc3)c2c1	inhibition	12.5 µg/mL	H37Rv		VERO		95%
CCOC(=O)c1ccc(NC(=S)NC(=O)c2cccs2)o1	MIC		H37Rv			BACTEC	≥12.5 µg/mL
C[C@@H]1CN(c2c(F)c(N)c3c(=O)c(C(=O)O)cn(C4CC4)c3c2F)C[C@H](C)N1	MIC		CSU28				≤0.125 µg/mL
CCOc1c(N=Nc2ccccc2Cl)c(-c2ccccc2)nn1C(=S)S	MIC		H37Rv			BACTEC	≥12.5 µg/mL
COc1ccc(-c2noc(C3=CC4(CCN(CC5CCCO5)CC4)c4ccccc43)n2)cc1	MIC		TB376	Spiroindene-resistant		turbidity	3 µM
C/C1=C/[C@@H]2OC(=O)[C@]3(C)[C@@H]2[C@@H](C[C@]2(C)OC1=CC2=O)O[C@@]3(O)C(C)C	MIC		H37Rv			BACTEC	≥12.5 µg/mL
CC[C@@H](CO)NCCN[C@@H](CC)CO	MIC		19000	Rifampicin-resistant		resazurin	1.2 µM
Oc1[nH]c2ccc(OC(F)(F)F)cc2c1N=NC(=S)Nc1ccc(Br)cc1	EC90		H37Rv			broth dilution / resazurin	1.53 µg/mL
COc1ccc2c(N/N=C/c3ccc4c(c3)OCO4)cc(C)nc2c1	MIC		H37Rv		VERO		12.5 µg/mL
CCCCCN(CCCCC)C(=O)COc1cc2c(O)c3c(O)c(C)c4c(c13)C(=O)[C@@](C)(O/C=C/[C@H](OC)[C@@H](C)[C@@H](OC(C)=O)[C@H](C)[C@H](O)[C@H](C)[C@@H](O)[C@@H](C)/C=C/C=C(/C)C(=O)N2)O4	MIC		H37Rv				0.3 µg/mL
Cc1ccc2c3c(nsc13)-c1ccccc1C2=O	inhibition	12.5 µg/mL	H37Rv			BACTEC	99%
Cc1cccc(C)c1Nc1nc(-c2ccccn2)cs1	MIC		H37Rv			visual reading	4.5 µM
Cc1ccc(/C=N/N=c2/scc(-c3cc4ccccc4oc3=O)n2C2CCCCC2)cc1	EC50		H37Rv				>6.25 µg/mL
C/C(=N\NC(=O)c1ccncc1)C(F)(F)F	inhibition	0.5 µM				BACTEC	98%
Cc1cccc(C)c1N=Nc1c(O)c2cc(Cl)ccc2[nH]c1=O	MIC		H37Rv			resazurin	>6.25 µg/mL
c1ccc(Nc2nc(-c3ccccn3)cs2)nc1	MIC99		H37Rv			visual reading	1 µM
O=c1[nH]c2cc([N+](=O)[O-])ccc2c(O)c1N=Nc1cccc(Cl)c1Cl	MIC		H37Rv			resazurin	>6.25 µg/mL
CC1(C)OC(N)=C(C(N)=O)C1c1ccc(Cl)cc1	MIC bound		H37Rv			BACTEC	>12.5 µg/mL
C1=C(c2nc(-c3cccnc3)no2)c2ccccc2C12CCN(CC1CCCO1)CC2	MIC		ATCC 2794	Drug-resistant		resazurin	1.56 µM
COc1ccc(/C=N/N=c2\scc(-c3cc4cc(Br)ccc4oc3=O)n2C2CCCCC2)cc1	MIC		H37Rv				>6.25 µg/mL
COc1ccc2c(N/N=C/c3c(OC)ccc4ccccc34)ccnc2c1	inhibition	12.5 µg/mL	H37Rv		VERO		100%
Cc1ccc(/C=N/N=c2/scc(-c3cc4cc(Br)ccc4oc3=O)n2C2CCCCC2)cc1	inhibition	6.25 µg/mL	H37Rv				5%
COC(=O)C12COC(=O)C1COC2=O	inhibition	12.5 µg/mL	H37Rv			BACTEC	0%
COc1ccc(OC)c(/C=N/N=c2/scc(-c3cc4cc(Br)ccc4oc3=O)n2C2CCCCC2)c1	EC50		H37Rv				>6.25 µg/mL
CCN(CC)c1ccc(/C=N/Nc2ccnc3cc(OC)ccc23)cc1	MIC		H37Rv		VERO		12.5 µg/mL
CN[C@@H]1[C@H](O[C@H]2[C@H](O[C@H]3[C@H](O)[C@@H](O)[C@H](N=C(N)N)[C@@H](O)[C@@H]3N=C(N)N)O[C@@H](C)[C@]2(O)C=O)O[C@@H](CO)[C@H](O)[C@H]1O	MIC		TN4800 (W33)				>2 µg/mL
CCCN(C(=O)COc1cc2c(O)c3c(O)c(C)c4c(c13)C(=O)[C@@](C)(O/C=C/[C@H](OC)[C@@H](C)[C@@H](OC(C)=O)[C@H](C)[C@H](O)[C@H](C)[C@@H](O)[C@@H](C)/C=C/C=C(/C)C(=O)N2)O4)N1CCCCC1	MIC		H37Rv				0.045 µg/mL
c1ccc(C2(c3ccccn3)Nc3ccccc3S2)nc1	MIC		H37Rv				12.5 µg/mL
Cn1c(O)c(N=NC(=S)Nc2ccccc2)c2cc(OC(F)(F)F)ccc21	EC50		H37Rv			broth dilution / resazurin	<0.2 µg/mL
Cn1c(=O)nc2n(-c3cc(Cl)ccc3Cl)c3ccccc3nc-2c1=O	inhibition	12.5 µg/mL	H37Rv			BACTEC	45%
[O-][n+]1ccccc1C1Nc2ccccc2S1	MIC		H37Rv				6.25 µg/mL
O=S(=O)(N=C([S-])[S-])c1ccccc1.[K+].[K+]	inhibition	12.5 µg/mL	H37Rv			BACTEC	-13%
Cc1ccc2c(c1)c(N=NC(=S)Nc1ccc(F)cc1)c(O)n2C	EC90		H37Rv			broth dilution / resazurin	>100 µg/mL
N=C(N)N=Nc1ccc(O)cc1.ON(O)O	inhibition	12.5 µg/mL	H37Rv			BACTEC	38%
Cc1ccc(-c2noc(C3=CC4(CCN(CC5CCCO5)CC4)c4ccccc43)n2)cn1	MIC		TB375	Spiroindene-resistant		turbidity	15.5 µM
NNc1ccnc2ccc(C3CCCCC3)cc12	MIC		H37Rv		VERO		6.25 µg/mL
Cc1ccc(S(=O)c2ccccc2[N+](=O)[O-])cc1	MIC bound		H37Rv			BACTEC	>12.5 µg/mL
c1ccc(Nc2nc(-c3nccs3)cs2)nc1	MIC		H37Rv			visual reading	20 µM
O=c1[nH]c2c([N+](=O)[O-])cccc2c(O)c1N=Nc1ccc(F)cc1	inhibition	6.25 µg/mL	H37Rv			resazurin	46%
CCCCN(CCCC)N(C)C(=O)COc1cc2c(O)c3c(O)c(C)c4c(c13)C(=O)[C@@](C)(O/C=C/[C@H](OC)[C@@H](C)[C@@H](OC(C)=O)[C@H](C)[C@H](O)[C@H](C)[C@@H](O)[C@@H](C)/C=C/C=C(/C)C(=O)N2)O4	MIC		H37Rv				0.09 µg/mL
CN[C@@H]1[C@H](O[C@H]2[C@H](O[C@H]3[C@H](O)[C@@H](O)[C@H](N=C(N)N)[C@@H](O)[C@@H]3N=C(N)N)O[C@@H](C)[C@]2(O)C=O)O[C@@H](CO)[C@H](O)[C@H]1O	MIC		136570	Streptomycin-resistant		resazurin	>55 µM
CCCCCCCC/C=C/CCCCCC1CCCC(C)N1	MIC		CS-R				12.5 µg/mL
CN1c2ccccc2SC1c1ccncc1	MIC		H37Rv				25 µg/mL
Nc1cc(=O)[nH]n1-c1ccccc1	MIC bound		H37Rv			BACTEC	>12.5 µg/mL
C=CCNC(=S)N=Nc1c(O)[nH]c2ccc(C)cc12	EC90		H37Rv			broth dilution / resazurin	>100 µg/mL
COC(=O)C1=C2\c3cc4c(cc3CCN2C(=O)c2ccc(OC)c(OC)c2/C(OC)=C\1)OCO4	MIC bound		H37Rv			BACTEC	>12.5 µg/mL
Cc1ccc2[nH]c(O)c(N=NC(=S)NC3CCCCC3)c2c1	EC50		H37Rv			broth dilution / resazurin	0.705 µg/mL
CC(C(=O)c1ccccc1)c1nc2nnc(N)n2[nH]c1=O	inhibition	12.5 µg/mL	H37Rv			BACTEC	0%
Oc1c(N=NC(=S)Nc2ccccc2)c2cc(OC(F)(F)F)ccc2n1CN1CCOCC1	EC90		H37Rv			broth dilution / resazurin	>100 µg/mL

Repeating the first 5 entries:

structure,measure,dose,strain,changes,cells,method,value
CC[As]1c2ccccc2Oc2ccccc21,inhibition,12.5 µg/mL,H37Rv,,,BACTEC,99%
CC(C)(C)c1ccc(CN2CCC3(CC2)C(=O)N(CC2CC2)c2ccccc23)cc1,MIC,,H37Rv,,,turbidity,0.8 µM
CO[C@H]1/C=C/O[C@@]2(C)Oc3c(C)c(O)c4c(O)c(c5c(c4c3C2=O)NC2(CCN(CC(C)C)CC2)N=5)=NC(=O)/C(C)=C\C=C\[C@H](C)[C@H](O)[C@@H](C)[C@@H](O)[C@@H](C)[C@H](OC(C)=O)[C@@H]1C,MIC,,CSU12,,,,≤0.125 µg/mL
O=c1[nH]c2ccc(Cl)cc2c(O)c1N=Nc1ccc(Cl)cc1,MIC,,H37Rv,,,resazurin,<6.25 µg/mL
Cc1cc(N/N=C/c2cc(C)n(-c3ccccc3)c2C)c2cc(C3CCCCC3)ccc2n1,inhibition,12.5 µg/mL,H37Rv,,VERO,,100%